{"source": "the supplement of paper PMC9931576", "binders": {"B1": {"name": "BD56-1419 (protein)", "chain 1": "QVQLQESGPGLVKPSETLSLTCAVSGDSVHSGRYYWSWIRQSPGKGLEWIGYIYYSGSSHYNPSLKSRVSISMDTSKNQFSLELRSVTAADTAVYYCARGFVVVVTSTPWFDPWGQGTLVTVSS", "chain 2": "QSVLTQPPSVSGAPGQRVTFSCTGSRSNIGAGYGAHWYQQLPGRAPKLLIYGNSSRPSGVPDRFSGSKSGTSASLAITGLQAEDEADYFCQSYDSRLSAWVFGGGTKLTVL"}, "B2": {"name": "BD56-1400 (protein)", "chain 1": "QVQLQESGPGLVKPSQTLSLTCTVSGGSISSTSYYWSWIRQPAGQGLEWIGHISTSGTTNYKSSLKSRVTISVDTSKNQFSLKLSSVTAADTAVYYCARGLGWPQPRIDNWGQGTLVTVSS", "chain 2": "DIQMTQSPSSLSASVGDRVTITCRASQSISNYLNWYQQKPGKAPKLLIYGASSLQSGVPLRFSGSGSGTDFTLTISSLRPEDFATYYCQQSYSTFTFGPGTKVDIK"}, "B3": {"name": "BD56-1418 (protein)", "chain 1": "QVQLVESGGGVVQSGRSLRLSCAASGFTFRNHGMHWVRQAPGKGLEWVAVIWNDGTNKYYAHSVKGRFTISRDNSKNTMYMEMNSLRAEDTAVYYCARDYGVGATMDDYFDYWGRGTLVTVSS", "chain 2": "QSVLTQPPSASGTPGQRVTISCSGSSSNIGDNYVYWYQHLPGTAPKLLIYRNNQRPSGVPDRFSGSKSGTSASLAISGLRSDDEADYHCAAWDDSLSGWAFGGGTKLTVL"}, "B4": {"name": "BD56-1414 (protein)", "chain 1": "EVQLVESGGGLVQPGRSLRLSCAASGFTFDDYAMHWVRQAPGKGLEWVSGISWNGGSRGYADSVKGRFTISRDNAKNSLYLQMNSLRVEDTAFYYCTKDDVRDYYGSDNWNWFDPWGQGTLVTVSS", "chain 2": "DIQMTQSPSSLSASVGDRVTITCRASQSISSYLNWYQQRPGKAPRLLIYAGISLQNGVPSRFSGSGSGTDFTLTISSLQPEDFATYYCQQNYRTPYTFGQGTKLEIK"}, "B5": {"name": "BD56-1393 (protein)", "chain 1": "QVQLVESGGGVVQPGRSLRLSCAASGFTFNNFAMHWVRQAPGKGLEWVAVISSDGSKKYYADSVKGRFTISRDISKNTLFLQMNSLRAEDTAVYYCAREPGTYGSGNYMDVWGKGTTVTVSS", "chain 2": "SYELTQPPSVSVSPGQTARITCSGDALPKQYAYWYQQKPGQAPVLLISKDSERPSGIPERFSGSTSGTTVTLTISGVQAEDEADYYCQSVDSSGTYVFGTGTKVTVL"}, "B6": {"name": "BD56-1399 (protein)", "chain 1": "QVHLVQSGAEVKKPGASVKVSCKASGYTFTNHYIHWVRQAPGQGLEWMGIINPSGGSTSYAQKFQGRVTMTTDTSTSTVYMELSSLRFDDTAVYYCARDSSYIPQNHYYGLDVWGQGTTVTVSS", "chain 2": "DIQMTQSPSSLSASVGDRVTITCRASQSISSYLNWYQQKPGKAPKLLIYAASSLQSGVPSRFSGGGSGTDFGLTISTLQPEDFATYYCQQSYITPPTFGQGTKVEIK"}, "B7": {"name": "BD56-1322 (protein)", "chain 1": "EVQVEESGGGLVQPGRSLRLSCVASGFTFEDFAMHWVRQAPGKGLEWVSGITWNSGTIGYADSVKGRFIISRDNAKNSLYLQMNSLSPDDTALYFCAKDMGKDDYDVLAGFRDWGQGTLVTVSS", "chain 2": "QSVLTQPPSASGTPGQRVTISCSGSSSNIGSNTVNWYQQLPGAAPKLLIYSNNQRPSGVPDRFSGSKSGTSASLAISGLQSEDEAGYYCAAWDDSLYVFGTGTKVTVL"}, "B8": {"name": "COV2-2413 (protein)", "chain 1": "QVQLVQSGAEVKKPGASVKVSCKASGYTFTSYDINWVRQATGQGLEWMGWMNPNSGNAGYGQKFQGRVTMTRNTSISTAYMELSSLRSEDTAVYYCARMRSGWPTHGRPDDYWGRGTLVTVSS", "chain 2": "QSVLTQPPSASGTPGQRVTFSCSGSNSNIGSYTVNWYQQLPGTAPKLLIYDNNQRPSGVPDRFSGSKSGTSASLAISGLQSEDEADYYCAVWDDSLNGLVFGGGTKLTVL"}, "B9": {"name": "BD56-1341 (protein)", "chain 1": "QVQLVESGGGVVQPGRSLRLSCAASGFTFSSYGMHWVRQAPGKGLEWVAVIWHDGTKKDYADSVKGRFTISRDNSKNTLYLQTSSLRAEDTAVYYCARGHYGDEVGYYYFALDVWGQGTTVTVSS", "chain 2": "QSVLTQPPSVSGAPGQRVTITCTGTSSNIGAPYDVHWYQQLPGTVPKLLIYGDTNRPSGVPDRFSGSKSGTSASLAITGLQAEDEGDYYCQSYDSSLSGWVFGGGTKLTVL"}, "B10": {"name": "BD56-1403 (protein)", "chain 1": "QVQLQESGPGLVKPSETLSLTCTVSGDSVHSGSYYWSWIRQPPGKGLEWIGYIYYSGSTNYNPSLKSRITMSLDTSKNQFSLKLNSVTAADTAVYYCARGFVVAVTAAPWFDPWGQGTLVTVSS", "chain 2": "B9 chain 2 with T21S, T25S, P32G, Y33F, V45A, G52R, D53N, T54N, V60I, G86A"}, "B11": {"name": "BD56-1329 (protein)", "chain 1": "EAQLVESGGGLVQPGGSLRLTCSVSGFTFSDYSIHWVRQAPVKGLEYVSSISSDGGITYYADSVKGRFTISRDNSKNTLYLQMSSLRPEDTAVYYCVRPLIHLWTDVYDIWGQGTMVTVSS", "chain 2": "DIQMTQSPSSLSASVGDRVTITCRASQSIITYLSWYQQRPGKAPKLLIYATSTLQTGVPSRFSGSGSGTDFTLTISSLQPEDFATYYCQQSYTTPPNFGGGTKVEIK"}, "B12": {"name": "BD56-1421 (protein)", "chain 1": "QVQLVESGGGVVQPGRSLRLSCAASGFTFRNYGMHWVRQAPGKGLEWVAVIWNDGTNKYYGDSVKGRFTISRDNSKNTLYLQMNTLRAEDTAVYYCARDYGVGATLEDYFDYWGPGTLVTVSS", "chain 2": "QSVLTQPPSASGTPGQRVTISCSGSSSNIGINFVYWYYHFPGTAPKLLIYKNNQRPSGVPDRFSGAKSGTSASLAIGGLRSEDEADYYCAAWDDSLGGWVFGGGTKLTVL"}}, "note": "Residue numbers refer to the chain shown, from its start. Human monoclonal antibodies against the spike receptor-binding domain (heavy:light variable regions). IC50 against pseudoviruses bearing the spike of naturally observed variants; lower = stronger; >10 µg/ml means not reached at the top dose. No active / inactive call. The stated detection limit is 0.0005 µg/ml; values near or below 0.001 µg/ml lie at the floor of the assay.", "data": [{"biological_target": "SARS-CoV-2 Omicron BA.1 spike pseudovirus", "experiment": "pseudovirus neutralization IC50; higher = weaker neutralization", "description": "(§1)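 Single-round VSV luciferase pseudovirus mixed with antibody dilutions for 1 h and put on Huh-7 cells for about a day; IC50 from the dose curve.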", "units": {"pseudovirus neutralization IC50": "µg/mL"}, "values": [{"binder": "B1", "pseudovirus neutralization IC50": "> 10"}, {"binder": "B2", "pseudovirus neutralization IC50": "> 10"}, {"binder": "B3", "pseudovirus neutralization IC50": 0.468}, {"binder": "B4", "pseudovirus neutralization IC50": "> 10"}, {"binder": "B5", "pseudovirus neutralization IC50": "> 10"}, {"binder": "B6", "pseudovirus neutralization IC50": "> 10"}, {"binder": "B7", "pseudovirus neutralization IC50": 0.0444}, {"binder": "B8", "pseudovirus neutralization IC50": "> 10"}, {"binder": "B9", "pseudovirus neutralization IC50": 1.17}, {"binder": "B10", "pseudovirus neutralization IC50": "> 10"}, {"binder": "B11", "pseudovirus neutralization IC50": 3.23}, {"binder": "B12", "pseudovirus neutralization IC50": "> 10"}]}, {"biological_target": "SARS-CoV-2 Omicron BA.2 spike pseudovirus", "experiment": "pseudovirus neutralization IC50; higher = weaker neutralization", "description": "as §1", "units": {"pseudovirus neutralization IC50": "µg/mL"}, "values": [{"binder": "B1", "pseudovirus neutralization IC50": "> 10"}, {"binder": "B2", "pseudovirus neutralization IC50": "> 10"}, {"binder": "B3", "pseudovirus neutralization IC50": 0.399}, {"binder": "B4", "pseudovirus neutralization IC50": "> 10"}, {"binder": "B5", "pseudovirus neutralization IC50": "> 10"}, {"binder": "B6", "pseudovirus neutralization IC50": "> 10"}, {"binder": "B7", "pseudovirus neutralization IC50": 0.0479}, {"binder": "B8", "pseudovirus neutralization IC50": "> 10"}, {"binder": "B9", "pseudovirus neutralization IC50": 0.227}, {"binder": "B10", "pseudovirus neutralization IC50": "> 10"}, {"binder": "B11", "pseudovirus neutralization IC50": 3.2}, {"binder": "B12", "pseudovirus neutralization IC50": "> 10"}]}, {"biological_target": "SARS-CoV-2 Omicron BA.2.75 spike pseudovirus", "experiment": "pseudovirus neutralization IC50; higher = weaker neutralization", "description": "as §1", "units": {"pseudovirus neutralization IC50": "µg/mL"}, "values": [{"binder": "B1", "pseudovirus neutralization IC50": "> 10"}, {"binder": "B2", "pseudovirus neutralization IC50": "> 10"}, {"binder": "B3", "pseudovirus neutralization IC50": 0.258}, {"binder": "B4", "pseudovirus neutralization IC50": "> 10"}, {"binder": "B5", "pseudovirus neutralization IC50": "> 10"}, {"binder": "B6", "pseudovirus neutralization IC50": "> 10"}, {"binder": "B7", "pseudovirus neutralization IC50": 0.0641}, {"binder": "B8", "pseudovirus neutralization IC50": "> 10"}, {"binder": "B9", "pseudovirus neutralization IC50": 0.291}, {"binder": "B10", "pseudovirus neutralization IC50": "> 10"}, {"binder": "B11", "pseudovirus neutralization IC50": 2.61}, {"binder": "B12", "pseudovirus neutralization IC50": "> 10"}]}, {"biological_target": "SARS-CoV-2 Omicron BA.5 spike pseudovirus", "experiment": "pseudovirus neutralization IC50; higher = weaker neutralization", "description": "as §1", "units": {"pseudovirus neutralization IC50": "µg/mL"}, "values": [{"binder": "B1", "pseudovirus neutralization IC50": "> 10"}, {"binder": "B2", "pseudovirus neutralization IC50": "> 10"}, {"binder": "B3", "pseudovirus neutralization IC50": 0.167}, {"binder": "B4", "pseudovirus neutralization IC50": "> 10"}, {"binder": "B5", "pseudovirus neutralization IC50": "> 10"}, {"binder": "B6", "pseudovirus neutralization IC50": "> 10"}, {"binder": "B7", "pseudovirus neutralization IC50": "> 10"}, {"binder": "B8", "pseudovirus neutralization IC50": "> 10"}, {"binder": "B9", "pseudovirus neutralization IC50": 0.272}, {"binder": "B10", "pseudovirus neutralization IC50": "> 10"}, {"binder": "B11", "pseudovirus neutralization IC50": 4.65}, {"binder": "B12", "pseudovirus neutralization IC50": "> 10"}]}, {"biological_target": "SARS-CoV-2 Omicron BQ.1.1 spike pseudovirus", "experiment": "pseudovirus neutralization IC50; higher = weaker neutralization", "description": "as §1", "units": {"pseudovirus neutralization IC50": "µg/mL"}, "values": [{"binder": "B1", "pseudovirus neutralization IC50": "> 10"}, {"binder": "B2", "pseudovirus neutralization IC50": "> 10"}, {"binder": "B3", "pseudovirus neutralization IC50": 2.03}, {"binder": "B4", "pseudovirus neutralization IC50": "> 10"}, {"binder": "B5", "pseudovirus neutralization IC50": "> 10"}, {"binder": "B6", "pseudovirus neutralization IC50": "> 10"}, {"binder": "B7", "pseudovirus neutralization IC50": "> 10"}, {"binder": "B8", "pseudovirus neutralization IC50": "> 10"}, {"binder": "B9", "pseudovirus neutralization IC50": 0.459}, {"binder": "B10", "pseudovirus neutralization IC50": "> 10"}, {"binder": "B11", "pseudovirus neutralization IC50": 5.89}, {"binder": "B12", "pseudovirus neutralization IC50": "> 10"}]}, {"biological_target": "SARS-CoV-2 Omicron XBB spike pseudovirus", "experiment": "pseudovirus neutralization IC50; higher = weaker neutralization", "description": "as §1", "units": {"pseudovirus neutralization IC50": "µg/mL"}, "values": [{"binder": "B1", "pseudovirus neutralization IC50": "> 10"}, {"binder": "B2", "pseudovirus neutralization IC50": "> 10"}, {"binder": "B3", "pseudovirus neutralization IC50": 2.06}, {"binder": "B4", "pseudovirus neutralization IC50": "> 10"}, {"binder": "B5", "pseudovirus neutralization IC50": "> 10"}, {"binder": "B6", "pseudovirus neutralization IC50": "> 10"}, {"binder": "B7", "pseudovirus neutralization IC50": 3.52}, {"binder": "B8", "pseudovirus neutralization IC50": "> 10"}, {"binder": "B9", "pseudovirus neutralization IC50": 0.638}, {"binder": "B10", "pseudovirus neutralization IC50": "> 10"}, {"binder": "B11", "pseudovirus neutralization IC50": 3.98}, {"binder": "B12", "pseudovirus neutralization IC50": "> 10"}]}, {"biological_target": "SARS-CoV-2 early D614G spike pseudovirus", "experiment": "pseudovirus neutralization IC50; higher = weaker neutralization", "description": "as §1", "units": {"pseudovirus neutralization IC50": "µg/mL"}, "values": [{"binder": "B1", "pseudovirus neutralization IC50": "> 10"}, {"binder": "B2", "pseudovirus neutralization IC50": "> 10"}, {"binder": "B3", "pseudovirus neutralization IC50": 0.551}, {"binder": "B4", "pseudovirus neutralization IC50": "> 10"}, {"binder": "B5", "pseudovirus neutralization IC50": "> 10"}, {"binder": "B6", "pseudovirus neutralization IC50": "> 10"}, {"binder": "B7", "pseudovirus neutralization IC50": 0.0223}, {"binder": "B8", "pseudovirus neutralization IC50": "> 10"}, {"binder": "B9", "pseudovirus neutralization IC50": 0.253}, {"binder": "B10", "pseudovirus neutralization IC50": "> 10"}, {"binder": "B11", "pseudovirus neutralization IC50": 0.838}, {"binder": "B12", "pseudovirus neutralization IC50": "> 10"}]}]}
